This is an account of results in publication PMC8306566 (Marine Drugs, 2021).

The chains behind the UniProt entries cited, without tags or fusion partners. Where a name states a change or a piece, a line headed by the entry shows the natural chain unless it says otherwise. Residues count along the entry.
UniProt P02716, 25-520 limits assumed: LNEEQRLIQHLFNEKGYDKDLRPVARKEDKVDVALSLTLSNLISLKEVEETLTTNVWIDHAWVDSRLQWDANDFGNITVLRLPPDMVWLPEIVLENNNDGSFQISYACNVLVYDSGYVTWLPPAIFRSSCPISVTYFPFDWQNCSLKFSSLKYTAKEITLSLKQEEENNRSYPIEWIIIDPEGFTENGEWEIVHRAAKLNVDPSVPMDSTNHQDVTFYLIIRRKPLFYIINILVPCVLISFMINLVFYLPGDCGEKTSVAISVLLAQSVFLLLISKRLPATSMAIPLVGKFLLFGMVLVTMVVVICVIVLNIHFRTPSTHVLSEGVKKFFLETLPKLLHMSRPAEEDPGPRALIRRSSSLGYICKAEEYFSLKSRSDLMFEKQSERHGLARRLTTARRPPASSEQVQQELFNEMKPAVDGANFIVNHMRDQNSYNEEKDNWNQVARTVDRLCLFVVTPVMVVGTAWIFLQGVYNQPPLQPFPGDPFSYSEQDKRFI
UniProt P09690, 24-501 partner limits assumed: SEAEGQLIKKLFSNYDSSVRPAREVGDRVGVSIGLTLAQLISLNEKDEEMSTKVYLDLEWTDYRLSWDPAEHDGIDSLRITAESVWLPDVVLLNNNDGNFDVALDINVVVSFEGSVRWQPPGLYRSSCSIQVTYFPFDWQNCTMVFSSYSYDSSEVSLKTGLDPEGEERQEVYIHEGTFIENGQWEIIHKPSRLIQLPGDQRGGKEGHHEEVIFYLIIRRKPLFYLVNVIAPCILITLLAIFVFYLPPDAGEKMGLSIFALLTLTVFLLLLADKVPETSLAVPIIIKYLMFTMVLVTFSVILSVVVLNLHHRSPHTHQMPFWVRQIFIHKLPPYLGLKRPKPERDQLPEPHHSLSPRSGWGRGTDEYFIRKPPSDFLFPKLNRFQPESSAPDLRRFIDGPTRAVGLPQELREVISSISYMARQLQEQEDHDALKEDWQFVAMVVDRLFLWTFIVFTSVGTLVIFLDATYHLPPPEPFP
UniProt P20782, 21-493 limits assumed: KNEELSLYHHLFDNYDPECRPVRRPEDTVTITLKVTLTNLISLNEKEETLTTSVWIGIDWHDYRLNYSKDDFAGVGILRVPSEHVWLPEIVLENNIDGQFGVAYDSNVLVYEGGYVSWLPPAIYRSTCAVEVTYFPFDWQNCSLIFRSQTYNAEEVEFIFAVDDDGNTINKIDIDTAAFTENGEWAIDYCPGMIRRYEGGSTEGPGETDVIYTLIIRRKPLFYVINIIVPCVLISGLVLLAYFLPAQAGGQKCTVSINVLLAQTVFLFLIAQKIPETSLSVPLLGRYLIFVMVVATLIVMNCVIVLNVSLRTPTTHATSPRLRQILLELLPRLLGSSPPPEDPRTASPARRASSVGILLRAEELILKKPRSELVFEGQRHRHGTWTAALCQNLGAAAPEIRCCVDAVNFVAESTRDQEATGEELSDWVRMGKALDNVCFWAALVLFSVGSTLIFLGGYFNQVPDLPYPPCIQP

Each structure is given as a SMILES string.

For the assay, the target named is mα1β1δε nAChR (Mus musculus, UniProt P02716+P04756+P09690+P20782). Nature of the assay: Two-electrode voltage clamp, ACh-evoked current block, mα1β1δε nAChR in Xenopus oocytes.

Usually inhibition stands for the change of the read-out against control, counted positive when it falls. Read a low inhibition as a weak effect. As a reminder, the IC50 is the concentration at which inhibition is half-maximal. A high value points to a need for much substance. Consider `CC[C@H](C)[C@@H]1NC(=O)[C@H](CC(=O)O)NC(=O)[C@H](CCC(N)=O)NC(=O)[C@H](CC(N)=O)NC(=O)[C@H](CC(N)=O)NC(=O)CNC(=O)[C@H](C)NC(=O)[C@@H]2CSSC[C@H](NC(=O)CN)C(=O)N[C@@H](CSSC[C@@H](C(N)=O)NC1=O)C(=O)N[C@@H](CO)C(=O)N[C@@H](Cc1c[nH]cn1)C(=O)N1CCC[C@H]1C(=O)N[C@@H](C)C(=O)N2` [LvIF], for which the “inhibition at 10 μM” value (Mα1β1δε, 10 μM, 5 min, n = 3) was 8.7 ± 3.8%. The same compound displayed an IC50 (mα1β1δε, 10 μM ACh, 5 min incubation, less than 50% blocking at 10 μM) of over 10 µM.
